Results from patent EP3964206A1, “COMPOUNDS FOR THE TREATMENT OF COVID-19” (priority 2020, dated 2022).

Tested on: SARS-CoV-2
Assay: microbe, parasite or virus in culture
Type: cell-based
Settings: Severe acute respiratory syndrome coronavirus 2, 120 h

| Structure (SMILES) | pIC50 |
| --- | --- |
| CC(=O)[C@]1(O)Cc2c(O)c3c(c(O)c2[C@@H](O[C@H]2C[C@H](N)[C@H](O)[C@H](C)O2)C1)C(=O)c1ccccc1C3=O [Compound 38, (7S,9S)-9-Acetyl-7-[(3-amino-2,3,6-trideoxy-alpha-L-lyxo-hexopyranosyl)oxy]-7,8,9,10-tetrahydro-6,9,11-trihydroxy-5,12-naphthacenedione hydrochloride] | 4.23 |
| O=C(O)Cc1cccc(OCCCN(Cc2cccc(C(F)(F)F)c2Cl)CC(c2ccccc2)c2ccccc2)c1 [Compound 71, 2-[3-[3-[N-[2-Chloro-3-(trifluoromethyl)benzyl]-N-(2,2-diphenylethyl)amino]propoxy]phenyl]acetic acid] | 4.56 |

pIC50: −log10 of the molar value. Structures can show the parent of a compound that is named as a salt.
